# Assay results as given in paper PMC12091907 (2025).
# B1: human CD44 extracellular domain (CD44-ECD, amino acids 21-220), labeled with Fc (Fc fusion)
# chain: QIDLNITCRFAGVFHVEKNGRYSISRTEAADLCKAFNSTLPTMAQMEKALSIGFETCRYGFIEGHVVIPRIHPNSICAANNTGVYILTSNTSQYDTYCFNASAPPEEDCTSVTDLPNAFDGPITITIVNRDGTRYVQKGEYRTNPEDIYPSNPTDDDVSSGSSSERSSTSGGYIFYTFSTVHPIPDEDSPWITDSTDRIP
# Biological target: TcdB frizzled-binding domain (TcdB-FBD, […]) with His-tag (Clostridioides difficile)
# Test: ELISA
binder,measurement,value
B1,Kd,82.1 nM
